Reference: publication PMC9142731 (Virology Journal, 2022)

The chains behind the UniProt entries cited, without tags or fusion partners. Where a name states a change or a piece, a line headed by the entry shows the natural chain unless it says otherwise.
UniProt P33469: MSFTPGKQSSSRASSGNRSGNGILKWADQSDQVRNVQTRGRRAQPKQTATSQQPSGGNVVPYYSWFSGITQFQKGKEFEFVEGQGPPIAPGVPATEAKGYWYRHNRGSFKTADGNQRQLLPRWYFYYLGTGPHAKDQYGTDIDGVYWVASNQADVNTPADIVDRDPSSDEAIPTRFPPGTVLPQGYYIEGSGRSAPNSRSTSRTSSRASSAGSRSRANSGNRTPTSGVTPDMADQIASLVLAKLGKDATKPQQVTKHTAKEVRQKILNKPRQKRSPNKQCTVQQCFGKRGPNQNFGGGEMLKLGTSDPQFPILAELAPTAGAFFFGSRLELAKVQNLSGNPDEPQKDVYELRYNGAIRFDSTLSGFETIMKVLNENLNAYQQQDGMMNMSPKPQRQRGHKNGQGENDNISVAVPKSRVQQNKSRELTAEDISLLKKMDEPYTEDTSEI
UniProt Q6Q1R8: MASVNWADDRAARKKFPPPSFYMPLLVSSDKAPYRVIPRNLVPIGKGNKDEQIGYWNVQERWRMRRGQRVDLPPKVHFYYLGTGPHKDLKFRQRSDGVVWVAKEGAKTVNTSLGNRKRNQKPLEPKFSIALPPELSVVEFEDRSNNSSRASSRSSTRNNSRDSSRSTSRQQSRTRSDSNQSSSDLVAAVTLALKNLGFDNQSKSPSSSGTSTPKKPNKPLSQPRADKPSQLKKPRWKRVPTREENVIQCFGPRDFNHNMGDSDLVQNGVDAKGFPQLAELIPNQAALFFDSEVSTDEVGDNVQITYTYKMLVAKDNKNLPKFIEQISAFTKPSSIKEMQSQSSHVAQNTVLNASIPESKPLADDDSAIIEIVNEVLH

Assays:
Assay in all cases: ELISA
Conditions in all cases: both partners purified
[1] = biological target: T1, MERS-CoV nucleocapsid protein, recombinant (MERS-CoV, strain , UniProt K9N4V7)
T1 construct: also called MERS-CoV NP; source: bought: Sino Biological

[2] = biological target: T2, OC43 nucleocapsid protein, recombinant (Human coronavirus OC43 (HCoV-OC43)., UniProt P33469)
T2 construct: also called OC43 NP; source: bought: Sino Biological

[3] = biological target: T3, HKU1 nucleocapsid protein, recombinant (Human coronavirus HKU1 (isolate N1) …, UniProt Q5MQC6)
T3 construct: also called HKU1 NP; source: bought: Sino Biological

[4] = biological target: T4, NL63 nucleocapsid protein, recombinant (Human coronavirus NL63 (HCoV-NL63)., UniProt Q6Q1R8)
T4 construct: also called NL63 NP; source: bought: Sino Biological

Measured: binding result

B1: P301-H5 (antibody, V domains shown)
VH: EVQLVESGGGLVQPGGSLKLSCAASGFTFSGSAMHWVRQASGKGLEWVGRIRSKANSYATAYAASVKGRFTISRDDSKNTAYLQMNSLKTEDTAVYYCNFRGAFDYWGQGTLVTVSS
VL: not shown
notes: source: 293 F cells, transient transfection, purified (Protein A beads)
no binding: all assays above
